Target: NP of H7N9 IAV (in killed denatured H7N9 (H7-Re3) viral particles) (Influenza A virus H7N9 H7-Re3 vaccine …, UniProt P03466, strain)
Experiment: ELISA

| Binder | binding result |
| --- | --- |
| H9N2-NP-Nb16-HRP (VHH) VHH: ESGGGSVQAGGSLRLSCAASGYTYSAYCMGWFRQAPGKEREEVASIDSDFGTNYADSVKGRFTISKDNPKNTLYLQMNNLKAEDTAMYYCAALKYSSSLCLDALPSRANYWGQGTQVTVSS | binds |
| H9N2-NP-Nb18-HRP (VHH) VHH: ESGGGSVQAGGSLRLSCAASHTYGTYAMAWFRQAPGEEREGVAAIDSDGETIYADSVKGRFTISRDNAKNILYLQMNSLKPEDTAMYYCAEDLRGVWYGRLELRPGRFTYWGQGTQVTVSS | binds |
| H9N2-NP-Nb53-HRP (VHH) VHH: ESGGGSVQAGGSLRLSCAASGYTFSNVYMGWFRQAPGKEREGVAAIDRDGRTTYGDSVKGRFTISQDNAKNILYLQMSSLKPEDTATYYCAADPGYVELISEPLAGIWYRYWGQGTQVTVSS | binds |
| H9N2-NP-Nb42-HRP (VHH) VHH: ESGGESVQAGGSLRLSCATSGFTYNRSYCMAWFRQVLGKEREGVAVIDRVGGSTYYADSVKGRFTVSQDNAKTTLYLQMNSLTPEDTAMYYCAAVSTLMTTCQGLLAGHSQRYAYWGQGTQVTVSS | binds |
| H9N2-NP-Nb5-HRP (VHH) VHH: ESGGGLVQPGGSLRLSCAASGFPFSDYDMNWARQAPGKELEDVSAISSGGTYTYYADSVKGRFTISRDNAKNTLYLQLNSLQTEDTAMYYCGRGWTSGYKSRGQGTQVTVSS | binds |

Source: PMC9763686 (The Journal of Biological Chemistry, 2022)
